Measured data: PubChem BioAssay AID504761 (Drosophila RNAi Screening Center, 2011)
The deposit covers about 22,000 reagents; shown is a random part of those with a known target gene and a result. Over the whole deposit, 116 (0.52%) are marked active. 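Calls depend on retest data that are not deposited; infection was ranked per plate without normalising between plates; the unit of the infection score is not given.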 Raw values vary from plate to plate and are shown uncorrected. Names joined by + are all predicted targets of the reagent. Not stated in the record: the amount of reagent, the time to read-out.

Screen: 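Insect host genes that dengue virus relies on to spread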 (primary screen)
Cells: D.Mel-2 cells from Drosophila
Reagents: long dsRNA against Drosophila genes
Challenge: infection with dengue virus type 2; dose and infection time not stated
Read-out: 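Cells stained for dengue envelope protein and imaged; percent of infected cells per well on duplicate plates, ranked by infection, with stained nuclei counted for cell number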
Direction: infection score: higher = more virus-infected cells; cell count: higher = more cells in the well
Rule for the call: 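Very low infection ranking in both replicate wells (chance probability at most 0.065), then a retest showing infection dropped 1.5-fold or more at p below 0.05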
Calls: active = confirmed: knock-down lowers infection; inactive = not picked or not confirmed

gene | amplicon | infection score, replicate 1 | infection score, replicate 2 | cell count, replicate 1 | cell count, replicate 2 | Outcome
bug (bunker gear) | DRSC07137 | – | 0.75 | 368 | 535 | inactive
Nmnat (Nicotinamide mononucleotide adenylyltransferase) | DRSC14644 | 2.38 | 7.19 | 5874 | 2683 | inactive
Nmnat (Nicotinamide mononucleotide adenylyltransferase) | DRSC26899 | 4.59 | 5.41 | 6559 | 6354 | inactive
CG18518 | DRSC01509 | 1.69 | 1.73 | 5399 | 5032 | inactive
Mlf (Myelodysplasia/myeloid leukemia factor) | DRSC07472 | 10.9 | 10.2 | 6402 | 6006 | inactive
Mlf (Myelodysplasia/myeloid leukemia factor) | DRSC23495 | 5.19 | 1.29 | 6433 | 6139 | inactive
DUBAI (Deubiquitinating apoptotic inhibitor) | DRSC07281 | 23.7 | 13.4 | 3276 | 6059 | inactive
CG13471 | DRSC10015 | 1.37 | 1.29 | 5909 | 5946 | inactive
MFS10 (Major Facilitator Superfamily Transporter 10) | DRSC19888 | 6.76 | 1.59 | 6107 | 6665 | inactive
MFS10 (Major Facilitator Superfamily Transporter 10) | DRSC26960 | 12.6 | 11.1 | 6115 | 6492 | inactive
CG8924 | DRSC23027 | 2.84 | 5.32 | 6122 | 6340 | inactive
CG12730 | DRSC17885 | 13.1 | 12.7 | 4575 | 4968 | inactive
CG15347 | DRSC18031 | 2.37 | 1.77 | 6245 | 6323 | inactive
CG8320 + ATPCL | DRSC07147 | 7.39 | 30.2 | 7059 | 5538 | inactive
CG9577 | DRSC20693 | 2.88 | 5.87 | 6430 | 6542 | inactive
CG9577 | DRSC27691 | 18.7 | 7.28 | 5619 | 6562 | inactive
Mst89B | DRSC16748 | 4.11 | 16.4 | 5818 | 5649 | inactive
unpg (unplugged) | DRSC07713 | 7.13 | 3.87 | 6468 | 6122 | inactive
unpg (unplugged) | DRSC28861 | 22.7 | 5.05 | 4652 | 1504 | inactive
CG13217 | DRSC06339 | 2.21 | 17.3 | 6661 | 5728 | inactive

Reformatted: entries from further up
{"gene":"bug (bunker gear)","amplicon":"DRSC07137","infection score, replicate 2":0.75,"cell count, replicate 1":368,"cell count, replicate 2":535,"Outcome":"inactive"}
{"gene":"Nmnat (Nicotinamide mononucleotide adenylyltransferase)","amplicon":"DRSC14644","infection score, replicate 1":2.38,"infection score, replicate 2":7.19,"cell count, replicate 1":5874,"cell count, replicate 2":2683,"Outcome":"inactive"}
{"gene":"Nmnat (Nicotinamide mononucleotide adenylyltransferase)","amplicon":"DRSC26899","infection score, replicate 1":4.59,"infection score, replicate 2":5.41,"cell count, replicate 1":6559,"cell count, replicate 2":6354,"Outcome":"inactive"}
{"gene":"CG18518","amplicon":"DRSC01509","infection score, replicate 1":1.69,"infection score, replicate 2":1.73,"cell count, replicate 1":5399,"cell count, replicate 2":5032,"Outcome":"inactive"}
{"gene":"Mlf (Myelodysplasia/myeloid leukemia factor)","amplicon":"DRSC07472","infection score, replicate 1":10.9,"infection score, replicate 2":10.2,"cell count, replicate 1":6402,"cell count, replicate 2":6006,"Outcome":"inactive"}

The listing continues.
gene | amplicon | infection score, replicate 1 | infection score, replicate 2 | cell count, replicate 1 | cell count, replicate 2 | Outcome
CG32246 | DRSC08115 | 13.5 | 4.72 | 5888 | 5844 | inactive
CG32246 | DRSC24361 | 1.3 | 1.3 | 6471 | 6136 | inactive
drongo | DRSC00814 | 1.85 | 2.47 | 5884 | 6328 | inactive
drongo | DRSC25074 | 4.44 | 2.67 | 6397 | 5665 | inactive
hebe | DRSC05192 | 0.84 | 2.11 | 6437 | 5174 | inactive
hebe | DRSC06605 | 11.7 | 28.7 | 5854 | 5813 | inactive
hebe | DRSC21614 | 4.58 | 16.6 | 5174 | 4190 | inactive
hebe | DRSC24505 | 2.72 | 11.5 | 6805 | 6645 | inactive
Prx2 (Peroxiredoxin 2) | DRSC20256 | 3.88 | 2.06 | 6554 | 6200 | inactive
Prx2 (Peroxiredoxin 2) | DRSC29996 | 13.5 | 6.15 | 6199 | 6148 | inactive
Tsp66E (Tetraspanin 66E) | DRSC09683 | 0.5 | 2.42 | 6636 | 6491 | inactive
CG7497 | DRSC10857 | 11.8 | 16.2 | 6077 | 6328 | inactive
CG7497 | DRSC28188 | 4.01 | 10.1 | 6886 | 5604 | inactive
Nup188 (Nucleoporin 188kDa) | DRSC21830 | 30 | 21.8 | 2582 | 3747 | inactive
Nup188 (Nucleoporin 188kDa) | DRSC29937 | 13.1 | 1.89 | 4192 | 4064 | inactive
Tmtc1 (Transmembrane O-mannosyltransferase targeting cadherins 1) | DRSC00151 | 4.03 | 4.34 | 5732 | 5755 | inactive
Ppm1 | DRSC08260 | 3.14 | 0.72 | 6176 | 5858 | inactive
Ppm1 | DRSC27792 | 5.08 | 3.26 | 6931 | 6879 | inactive
CBP (sarcoplasmic calcium-binding protein) | DRSC17746 | 3.16 | 9.53 | 6288 | 6304 | inactive
CG13950 | DRSC00368 | 4.16 | 3.36 | 6232 | 6003 | inactive
CG13950 | DRSC27405 | 13.7 | 21.9 | 6541 | 4768 | inactive
Gcn5 (Gcn5 acetyltransferase) | DRSC11248 | 12.2 | 9.2 | 5937 | 6000 | inactive
Gcn5 (Gcn5 acetyltransferase) | DRSC26932 | 2.19 | 17.2 | 5846 | 5518 | inactive
r-l (rudimentary-like) | DRSC17042 | 6.63 | 2.14 | 6452 | 6355 | inactive
r-l (rudimentary-like) | DRSC22784 | 1.01 | 1.45 | 6142 | 6812 | inactive
sdk (sidekick) | DRSC18831 | 7.76 | 25.1 | 5630 | 5766 | inactive
CG16976 (retired record) | DRSC08499 | 2.56 | 3.49 | 5986 | 5675 | inactive
CG16976 (retired record) | DRSC25709 | 3.34 | 4.31 | 6018 | 6293 | inactive
Scp2 (Sarcoplasmic calcium-binding protein 2) | DRSC13166 | 1.99 | 3.91 | 6391 | 6213 | inactive
Scp2 (Sarcoplasmic calcium-binding protein 2) | DRSC16854 | 3.15 | 2.58 | 6441 | 6327 | inactive
lncRNA:CR32690 (long non-coding RNA:CR32690) | DRSC22219 | 5.03 | 6.16 | 6764 | 6513 | inactive
lncRNA:CR32690 (long non-coding RNA:CR32690) | DRSC27561 | 24.8 | 16.9 | 6194 | 6346 | inactive
Lsm12a (LSM12 homolog a) | DRSC19702 | 5.65 | 5.94 | 6230 | 6493 | inactive
Bcs1 (Bcs1 chaperone) | DRSC02789 | 1.41 | 0.46 | 6899 | 6956 | inactive
CG10472 | DRSC09730 | 7.35 | 5.03 | 6518 | 6643 | inactive
CG10472 | DRSC25310 | 6.53 | 11.7 | 6064 | 6019 | inactive
Ppcs (Phosphopantothenoylcysteine synthetase) | DRSC14127 | 2.26 | 9.16 | 6144 | 6637 | inactive
CG10657 | DRSC09768 | 5.03 | 5.08 | 6149 | 6104 | inactive
CG10657 | DRSC27483 | 16.4 | 22.9 | 5394 | 6874 | inactive
